Experimental data as given in the supplement of paper PMC9931576.
Human monoclonal antibodies against the spike receptor-binding domain (heavy:light variable regions). IC50 against pseudoviruses bearing the spike of naturally observed variants; lower = stronger; >10 µg/ml means not reached at the top dose. No active / inactive call. The stated detection limit is 0.0005 µg/ml; values near or below 0.001 µg/ml lie at the floor of the assay.

Assays:
Test in all cases: pseudovirus neutralization IC50; higher = weaker neutralization
[1] = biological target: SARS-CoV-2 Omicron BA.1 spike pseudovirus
Procedure: (§1)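 Single-round VSV luciferase pseudovirus mixed with antibody dilutions for 1 h and put on Huh-7 cells for about a day; IC50 from the dose curve.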

[2] = biological target: SARS-CoV-2 Omicron BA.2 spike pseudovirus
Procedure: as §1

[3] = biological target: SARS-CoV-2 Omicron BA.2.75 spike pseudovirus
Procedure: as §1

[4] = biological target: SARS-CoV-2 Omicron BA.5 spike pseudovirus
Procedure: as §1

[5] = biological target: SARS-CoV-2 Omicron BQ.1.1 spike pseudovirus
Procedure: as §1

[6] = biological target: SARS-CoV-2 Omicron XBB spike pseudovirus
Procedure: as §1

[7] = biological target: SARS-CoV-2 early D614G spike pseudovirus
Procedure: as §1

| Binder | pseudovirus neutralization IC50 [1] [µg/mL] | pseudovirus neutralization IC50 [2] [µg/mL] | pseudovirus neutralization IC50 [3] [µg/mL] | pseudovirus neutralization IC50 [4] [µg/mL] | pseudovirus neutralization IC50 [5] [µg/mL] | pseudovirus neutralization IC50 [6] [µg/mL] | pseudovirus neutralization IC50 [7] [µg/mL] |
| --- | --- | --- | --- | --- | --- | --- | --- |
| BD56-467 (protein) chain 1: QVQLVQSGAEVKKPGSSVKVSCKASGGTVSSYTISWVRQAPGQGLEWMGRIIPILNITNYAQNFQGRVTITADKPTSTAYMELSSLRSEDTAVYYCAKEDTGYCTSGVCDDAFDYWGQGTLVTVSS chain 2: DIQMTQSPSSLSASVGDRVTITCRASQSITNYLNWYQQKPGKAPKLLIYAASTLQSGVPSRFSGSGSGTEFALTISSLQPEDFATFYCQQSYSTLSLTFGGGTKVEI | 0.0492 | 0.00262 | 0.0041 | > 10 | > 10 | > 10 | 0.0028 |
| BD56-447 (protein) chain 1: QMQLVQSGPEVKKPGTSVKVSCKASGFTFSSSAVQWVRQSRGQRLEWIGWIVVGSGNTEYAQKFQERVSITRDMSTNTAYMEVTSLRSEDTAVYYCAAPYCSTTICDDGFDIWGQGTMVTVSS chain 2: EIVLTQSPGTLSLSPGERATLSCRASQNVRSSYFAWYQQKPGQAPRLLIYVASSRATGIPDRFSGSGSGTDFTLTISRLEPEDFAVYYCQQYDKSPWTFGQGTKVEVK | 0.0177 | 0.0178 | 0.00149 | 1.84 | 1.48 | > 10 | 0.00162 |
| BD56-468 (protein) chain 1: QVQLVESGGGVVQPGRSLRLSCAASGFTFSIHGMHWVRQAPGKGLEWVTVIWFDGSKKYYADSVKGRFTISRDNSKNMLYLQMDSLRAEDTAVYYCARDAQDDDGGAHDAFDFWGQGTMVTVSS chain 2: DIQMTQSPSSLSASVGDRVTITCRSSQSISTFLNWYQQKPGNAPKLLIFATSSLQSGVPSRFSGSGSGTDFTLTIRSLQPEDFATYYCQQTYSTLGYTFGQGTKLEIK | 0.101 | 0.0203 | 0.147 | > 10 | > 10 | > 10 | 0.0271 |
| BD56-454 (protein) chain 1: QVQLVQSGAEVKKPGASVRVSCKASGYTFSDYGITWVRRAPGQGLEWMGWISAHNGDTNYAQQFEGRVTLTTDTSTSTAYMELRSLRSDDTAVYYCARDDYYSSGTYYKVVGLTNNWFDPWGQGTLVTVSS chain 2: DIQMTQSPSSLSASVGDRVTITCRASQTISSFLNWYQQQSGKAPKLLIYAASTLQSGVPSRFSGSGSGTEFTFTISGLQPEDFATYHCQQSYSYPPTFGGGTKVEIK | 0.0103 | 0.00274 | 0.00687 | 2.29 | > 10 | > 10 | 0.00357 |
| BD56-445 (protein) chain 1: QVQLQESGPGLVKPSETLSLTCTVSGASISNYYWNWIRQSPGKGLEWIGCMYYGGKINYNPSLKSRATMSKDTSKNQFSLKLTSVTAADTAVYYCARGGPMIGVVADDAFDIWGQGTMVTVSS chain 2: DIQMTQSPSSLSASVGDRVTITCRASQSIGNYLNWYQQKPGKAPKLLIYAASSLQSGVPSRFSGSGSGTDFTLTISSLQREDFATYYCQQSYSTLQITFGQGTRLEIK | 0.205 | 0.0506 | 0.274 | 0.448 | > 10 | > 10 | 0.00572 |
| BD56-444 (protein) chain 1: EVQLVESGGDLVQPGRSLRLSCAASGFTFDDYDMHWVRQAPGKGLEWVSGITWNSGTIGYADSVKGRFIISRDNAKNSLYLQMRSLRVEDTALYYCVKDILGRGSKWYDPEDYGMDVWGQGTTVTVSS chain 2: SYVLTQPPSVSVAPGQTASITCGGNNIGRKSVHWYQQKPGRAPVLVVYDDRDRPSGIPERFSGANSGNTATLTISRVEAGDEADYYCQVWDTTTNNVVFGGGTKLTVL | 0.0405 | 0.0379 | 0.082 | 2.42 | > 10 | 3.28 | 0.00534 |
